# Experimental data taken from article PMC8341946, “Wheat pathogen Zymoseptoria tritici N-myristoyltransferase inhibitors: on-target antifungal activity and an unusual metabolic defense mechanism” (RSC Chemical Biology, 2020).
# Amino acid sequences for entries named in this document (tags omitted). A change or cut given only in a name is not applied to a line headed by its entry. Residues count along the entry.
# UniProt F9XBB7, 436-871 limits assumed, stated change not applied: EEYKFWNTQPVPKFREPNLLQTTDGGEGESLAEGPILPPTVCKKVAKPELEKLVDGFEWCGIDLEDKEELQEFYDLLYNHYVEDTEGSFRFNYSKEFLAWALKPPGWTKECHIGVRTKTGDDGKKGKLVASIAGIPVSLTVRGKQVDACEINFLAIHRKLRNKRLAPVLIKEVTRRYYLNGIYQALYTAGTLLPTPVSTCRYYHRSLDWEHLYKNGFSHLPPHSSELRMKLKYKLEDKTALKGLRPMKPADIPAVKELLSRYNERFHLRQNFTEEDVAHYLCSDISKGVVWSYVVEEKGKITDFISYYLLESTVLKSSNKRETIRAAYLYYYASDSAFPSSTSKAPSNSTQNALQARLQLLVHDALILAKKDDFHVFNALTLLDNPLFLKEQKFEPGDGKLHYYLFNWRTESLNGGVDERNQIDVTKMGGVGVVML
# How the values were obtained:
# [1] = biological target: ZtNMTΔ99 (Zymoseptoria tritici, UniProt F9XBB7); assay: ZtNMT IC50 assay (CPM, enzymatic); format: biochemical; details: Table S1
# [2] = system: Z. tritici; assay: Anti-proliferative EC50 assay (MTS viability); details: Table S1
structure (smiles),measurement,setting,value
c1cnc(OC2CCNCC2)c(-c2nc(Cc3cccc4ncccc34)no2)c1,IC50,[1],0.52 µM
same,EC50,[2],160 µM
